This passage reports chemical recovery results from the supplement of paper PMC10702517.

The series can be described thus: chemical recovery from spiked human plasma; higher = better extraction. Particulars: pooled human plasma.

± gives the standard deviation.

With `O=[p+]1oc2ccccc2c2ccccc21` (stereo not drawn) [3,4,5,6-Dibenzo-1,2-oxaphosphane-2-oxide], the chemical recovery runs as follows: (extraction method: PES+SPE (3 d PDMS equilibration then HLB SPE)) 42.8 ± 2.5%; (extraction method: SPE only (HLB 96-well)) 42.2 ± 5.8%; (extraction method: solvent precipitation (ACN + hexane)) 66.5 ± 8.7%.
